Columns and labels:
Settings in all cases: remark: other sources report otherwise
[1] = molecular target: SARS-CoV-2 RBD-hFc (receptor binding domain of the SARS-CoV-2 spike protein, amino acids Arg319 to P (SARS-CoV-2))
[2] = molecular target: T1, SARS-CoV-2 RBD-hFc (receptor binding domain of the SARS-CoV-2 Spike protein, amino acids Arg319-Phe5 (SARS-CoV-2)); assay: blocking ELISA, RBD-hFc to hACE2-His, highest antibody concentration, run 3
[3] = molecular target: T1, SARS-CoV-2 RBD-hFc (receptor binding …); assay: blocking ELISA, RBD-hFc to hACE2-His, run 3
[4] = molecular target: T1, SARS-CoV-2 RBD-hFc (receptor binding …); assay: blocking ELISA, RBD-hFc to hACE2-His, run 1
[5] = molecular target: T1, SARS-CoV-2 RBD-hFc (receptor binding …); assay: blocking ELISA, RBD-hFc to hACE2-His, highest antibody concentration, run 1

Binder | SARS-CoV-2 RBD-hFc Binding to His presented ACE2 (Abs 450 nm) [1] | % Blocking [2] | IC50 [3] | IC50 [4] | % Blocking [5]
mAb10998 (antibody) heavy: EVQLVESGGGLVHPGGSLRLSCAASGLTVSSNYMSWVRQAPGKGLEWVSVIYSGGSTYYADSVKGRFTISRHNSKNTLFLQMNSLRAEDTAVYYCARDRPITGTTLDVWGQGTTVTVSSASTKGPSVFPLAPSSKSTSGGTAALGCLVKDYFPEPVTVSWNSGALTSGVHTFPAVLQSSGLYSLSSVVTVPSSSLGTQTYICNVNHKPSNTKVDKKV[human IgG1 Fc left out here] light: DIQMTQSPSSLFASVGDRVTITCRASQSISSYLNWYQQKPGKAPKLLIYAASSLQSGVPSRFSGSGSGTDFTLTISSLQPEDFAFYYCQQTYSTPPITFGQGTRLEIKRTVAAPSVFIFPPSDEQLKSGTASVVCLLNNFYPREAKVQWKVDNALQSGNSQESVTEQDSKDSTYSLSSTLTLSKADYEKHKVYACEVTHQGLSSPVTKSFNRGEC | 0.185 Abs 450 nm | 55% |  |  | 
mAb11006 (antibody) heavy: EVQLVESGGGLVQPGGSLRLSCAASGFIVSRNYMSWVRQAPGKGLEWVSVIYSGGSTFYADSVKGRFTISRHNSKNTLYLQMNSLKAEDTAVYYCARELRGYFDYWGQGTLVTVSSASTKGPSVFPLAPSSKSTSGGTAALGCLVKDYFPEPVTVSWNSGALTSGVHTFPAVLQSSGLYSLSSVVTVPSSSLGTQTYICNVNHKPSNTKVDKKV[human IgG1 Fc left out here] light: DIQLTQSPSFLSASVGDRVTITCWASQGISSYLAWYQQKPGKAPKLLIYAASTLQSGVPSRFSGSGSGTEFTLTISSLQPEDFATYYCQLLNSYPYTFGQGTKLEIKRTVAAPSVFIFPPSDEQLKSGTASVVCLLNNFYPREAKVQWKVDNALQSGNSQESVTEQDSKDSTYSLSSTLTLSKADYEKHKVYACEVTHQGLSSPVTKSFNRGEC | 0.236 Abs 450 nm | 85% |  |  | 
mAb11008 (antibody) heavy: EVQLVESGGGLVQPGGSLRLSCAASGFTVSSNYMTWVRQAPGKGLEWVSVIYSGGSTFYADSVKGRFTISRHNSENTLYLQMNSLRAEDTAVYYCARDLAAAGTDYWGQGALVTVSSASTKGPSVFPLAPSSKSTSGGTAALGCLVKDYFPEPVTVSWNSGALTSGVHTFPAVLQSSGLYSLSSVVTVPSSSLGTQTYICNVNHKPSNTKVDKKV[human IgG1 Fc left out here] light: DIQLTQSPSFLSASVGDRVTITCWASQGISSYLAWYQQKPGKAPKLLIYAASTLQSGVPSRFSGSGSGTEFTLTISSLQPDDFATYYCQHLNSYLYTFGQGTKLEIKRTVAAPSVFIFPPSDEQLKSGTASVVCLLNNFYPREAKVQWKVDNALQSGNSQESVTEQDSKDSTYSLSSTLTLSKADYEKHKVYACEVTHQGLSSPVTKSFNRGEC | 0.213 Abs 450 nm | 93% | 1.49 nM |  | 
mAb10938 (antibody) heavy: EVQLVESGGGLVQPGGSLRLSCAVSGFTVSSNYMSWVRQAPGKGLEWVSLIYSGGSTFYADSVKGRFTISRHNSKNTLYLQMNSLRAEDTAVYYCAREGGYSYDYNYWGQGTLVTVSSASTKGPSVFPLAPSSKSTSGGTAALGCLVKDYFPEPVTVSWNSGALTSGVHTFPAVLQSSGLYSLSSVVTVPSSSLGTQTYICNVNHKPSNTKVDKKV[human IgG1 Fc left out here] light: DIQMTQSPSSLSASVGDRVTITCQASQDIRNYLNWYQQKPGKAPKLLIYDASNLETGVPSRFSGIGSGTDFTFTISSLQPEDIATYYCQQYDNLPITFGQGTRLEIKRTVAAPSVFIFPPSDEQLKSGTASVVCLLNNFYPREAKVQWKVDNALQSGNSQESVTEQDSKDSTYSLSSTLTLSKADYEKHKVYACEVTHQGLSSPVTKSFNRGEC |  |  |  | 0.275 nM | 99%
mAb10920 (antibody) heavy: QVQLVESGGGVVQPGRSLRLSCAASGFTFSYYGMHWVRQAPGKGLEWVAVIWYDGSNKFYADSVKGRFTISRDNSKNTLYLQMNSLRAEDTAVYYCAAARPGYYYGMDVWGQGTTVTVSSASTKGPSVFPLAPSSKSTSGGTAALGCLVKDYFPEPVTVSWNSGALTSGVHTFPAVLQSSGLYSLSSVVTVPSSSLGTQTYICNVNHKPSNTKVDKKV[human IgG1 Fc left out here] light: DIQMTQSPSSLSASVGDRVTITCRASQGISNYLAWFQQKPGKAPNSLIYAASSLQRGVPSKFSGSGSGTDFTLTISSLQPEDFATYYCQQYNSYPRTFGQGTKVEIKRTVAAPSVFIFPPSDEQLKSGTASVVCLLNNFYPREAKVQWKVDNALQSGNSQESVTEQDSKDSTYSLSSTLTLSKADYEKHKVYACEVTHQGLSSPVTKSFNRGEC |  | 87% | 0.139 nM | 0.338 nM | 95%
mAb10921 (antibody) heavy: EVQLVESGGGLVQPGGSLRLSCAASGITVSSNYMSWVRQAPGKGLEWVSVIYSGGSTFYADSVKGRFTISRHNSKNTLYLQMNSLRAEDTAVYYCARERNFDAFDIWGQGTMVTVSSASTKGPSVFPLAPSSKSTSGGTAALGCLVKDYFPEPVTVSWNSGALTSGVHTFPAVLQSSGLYSLSSVVTVPSSSLGTQTYICNVNHKPSNTKVDKKV[human IgG1 Fc left out here] light: DIQMTQSPSSVSASVGDRVTITCRASQGISSWLAWYQQKPGKAPKLLIYAASSLQSGVPSRFSGSGSGTDFTLTISSLQPEDFATYYCQQANSFPLFTFGPGTKVDIKRTVAAPSVFIFPPSDEQLKSGTASVVCLLNNFYPREAKVQWKVDNALQSGNSQESVTEQDSKDSTYSLSSTLTLSKADYEKHKVYACEVTHQGLSSPVTKSFNRGEC |  | 94% | 0.507 nM | 0.433 nM | 99%

From patent US20220356230A1
